Results of unrelated studies side by side (data: NIAID ChemDB).

All rows: host cell toxicity; cells: BCBL-1; read-out: CC50

Lines come from different laboratories, so protocols vary.

CCCSc1nc(N)nc2c1ncn2/C=C1/C[C@@H]1CO ; value: 148 µM
Nc1ccn(C[C@@H](CO)OCP(=O)(O)O)c(=O)n1 ; value: >159 µM
Nc1ncnc2c1ncn2/C=C1/CC1(CO)CO ; value: 124 µM
Nc1nc(=O)n([C@H]2C[C@H](O)[C@@H](CO)O2)cc1/C=C/Cl ; read by: cell count ; value: 184 µM
CCCCCCCCCCCCCCCCOP1(=O)CO[C@@H](Cn2ccc(N)nc2=O)CO1 ; value: >1 µM
Nc1nc(OCC2CC2)c2ncn(/C=C3/C[C@@H]3CO)c2n1 ; value: 130 µM
O=C(NCc1ccc(Cl)cc1)c1cn2c(CCN3CCOCC3)cc3cc(CN4CCOCC4)cc(c1=O)c32 ; read by: MTS ; value: >17.9 µM
NC1=NC2C(C=CN2CC(CO)CCO)C(=O)N1 ; read by: cell count ; value: >200 µM
CCCCCCCCCCCCCCCCOP(=O)(O)CO[C@H](CO)Cn1ccc(N)nc1=O ; value: >1 µM
OC[C@H]1O[C@@H](n2c(Br)nc3cc(Cl)c(Cl)cc32)[C@H](O)[C@@H]1O ; value: >125 µM
CCCCCCCC/C=C\CCCCCCCOCCOP1(=O)CO[C@@H](Cn2ccc(N)nc2=O)CO1 ; value: >0.9 µM
Nc1nc(NC2CC2)c2ncn(/C=C3/C[C@@H]3CO)c2n1 ; value: 110 µM
O=c1[nH]c(=O)n([C@@H]2O[C@H](CO)[C@@H](O)[C@@H]2O)cc1/C=C/Br ; read by: cell count ; value: 340 µM
CCCCCCCCCCCCCCCCCCOC[C@H](COP(=O)(O)CO[C@H](CO)Cn1ccc(N)nc1=O)OCc1ccccc1 ; value: >1 µM

CCn is the concentration with n% toxicity to the cells.